Source: patent US20230338310A1, “ANTI-VIRAL THERAPY” (priority 2020, published 2023)

Experiment: PLP thiazolidine formation: reaction with pyridoxal-5′ phosphate cofactor, absorbance scan
Conditions: for absorbance at 320 nm, reaction products versus PLP alone / absorbance at 390 nm versus PLP alone: 2 mM compound + 2 mM PLP, carbonate-bicarbonate buffer pH 7.4, 1 h room temperature, n=6; for reaction with PLP (thiazolidine formation): equimolar 2 mM, pH 7.4

| SMILES | absorbance at 320 nm, reaction products versus PLP alone | absorbance at 390 nm versus PLP alone | reaction with PLP (thiazolidine formation) |
| --- | --- | --- | --- |
| NCCSSCCN [cystamine dihydrochloride, 2,2′-Dithiobis(ethylamine)] | significant difference | non-significant reduction | to a lesser extent |
| NCCS [cysteamine, 2-Aminoethanethiol] | significant difference | significant reduction | react with PLP |

Counter-ions that a name gives are not always drawn.
